Results of unrelated studies side by side (data: NIAID ChemDB).

Shared fields: target-level tests

a–b is a range or a potency band. Fold resistance: result on the changed form divided by that on wild type. ICn is the concentration giving n% inhibition. Percent inhibition refers to the dose given; in toxicity tests it is the harm to the cells. Blank or dashed fields: not listed here. Rows are shuffled and stem from different studies.

SMILES,dose,strain,changes,measure,read by,organism,target,result
CC(C)(C)NC(=O)[C@@H]1[C@@H](c2ccccc2)CCN1C(=O)[C@@H](O)[C@H](Cc1ccccc1)NC(=O)[C@H](CC(N)=O)NC(=O)OCc1ccccc1,0.05 µM,,,inhibition,,HIV-1,Protease,83.2%
CN(CC1c2nc(C(=O)NCc3ccc(F)cc3)c(O)c(=O)n2CCN1C)C(=O)CS(C)(=O)=O,,,,IC50,ELISA,HIV-1,Integrase,<10 µM
CC(C)(C)C(=O)c1cn2c(c(O)c1=O)C(=O)N(Cc1ccc(Cl)c(Cl)c1)CC2,,,,IC50,ELISA,HIV-1,Integrase,<0.01 µM
CN1CCN(CC#Cc2ccc(NC(=O)CSc3nnnn3-c3ccc(C(C)(C)C)cc3Cl)c(Cl)c2)CC1,,WT,,IC50,PicoGreen / fluorescence,HIV-1,Reverse transcriptase,<1 µM
CC(C)(C)NC(=O)[C@@H]1CCCN1C(=O)[C@@H](O)[C@H](Cc1ccccc1)NC(=O)[C@H](CS(N)(=O)=O)NC(=O)COc1cccc2ccccc12,,,,IC50,,HIV-1,Protease,>0.05 µM
CCNC(=O)NC(C)(C)C#Cc1ccc(NC(=O)CSc2nnnn2-c2ccc(C3CC3)cc2Cl)c(Cl)c1,,,RT-K103 Y181C,IC50,PicoGreen / fluorescence,HIV-1,Reverse transcriptase,<1 µM
Nc1nc2c(ncn2[C@H]2CC[C@@H](COP(=O)(O)OP(=O)(O)OP(=O)(O)O)O2)c(=O)[nH]1,,,RT-L74V,Ki,,HIV,Reverse transcriptase,0.12 µM
CC(=O)N(CC(C)C)c1cn2ccn(Cc3cccc(Cl)c3)c(=O)c2c(O)c1=O,,,,IC50,ELISA,HIV-1,Integrase,0.01–0.1 µM
O=C(CSc1nnnn1-c1ccc(C2CC2)cc1Cl)Nc1ccc(C(=O)NCCc2cc[n+]([O-])cc2)cc1Cl,,WT,,IC50,PicoGreen / fluorescence,HIV-1,Reverse transcriptase,<1 µM
CC1(C)c2nc(C(=O)NCc3ccc(F)cc3)c(O)c(=O)n2CCN1Cc1ccccn1,,,,IC50,ELISA,HIV-1,Integrase,<10 µM
CC(C)(C)c1ccc(-n2nnnc2SCC(=O)Nc2ccc(NC(=O)C(C)(C)c3ccccc3)cc2Cl)c(Cl)c1,,WT,,IC50,PicoGreen / fluorescence,HIV-1,Reverse transcriptase,<1 µM
CC(C)OC(=O)c1cn2ccn(Cc3cccc(Cl)c3)c(=O)c2c(O)c1=O,,,,IC50,ELISA,HIV-1,Integrase,0.01–0.1 µM
CNC(=O)c1cc(F)ccc1CNC(=O)c1nc2n(c(=O)c1O)CCN(C)C2(C)C,,,,IC50,ELISA,HIV-1,Integrase,<10 µM
CC(C)C(=O)Nc1ccc(NC(=O)CSc2nnnn2-c2ccc(C(C)(C)C)cc2Cl)c(Cl)c1,,,RT-K103 Y181C,IC50,PicoGreen / fluorescence,HIV-1,Reverse transcriptase,<1 µM
NC(=O)C[C@H](NC(=O)[C@@H](N)Cc1ccccc1)C(=O)N[C@@H](Cc1ccccc1)[C@@H](O)C(=O)NCC1CCCCC1,1000 µM,,,inhibition,,HIV-1,Protease,56.6%
CN1CCn2c(nc(C(=O)NCc3cccc(Cl)c3)c(O)c2=O)C(N(C)C(=O)C(=O)N(C)C)C1,,,,IC50,ELISA,HIV-1,Integrase,<10 µM
Nc1ccn([C@@H]2CS[C@H](COP(=O)(O)OP(=O)(O)OP(=O)(O)O)O2)c(=O)n1,,,RT-K65R Q151M,fold resistance,radiometric,HIV,Reverse transcriptase,0.94
CC(C)(C#Cc1ccc(NC(=O)CSc2nnnn2-c2cc(C(C)(C)C)cc(Br)c2Cl)c(Cl)c1)NC(=O)CN1CCC(C(=O)O)CC1,,,RT-K103 Y181C,IC50,PicoGreen / fluorescence,HIV-1,Reverse transcriptase,<1 µM
Cc1cn([C@H]2CC[C@@H](COP(=O)(O)OP(=O)(O)OP(=O)(O)O)O2)c(=O)[nH]c1=O,,,RT-L74V,fold resistance,,HIV,Reverse transcriptase,3.86
CC1(C)CCN(C(=O)[C@@H](O)[C@H](Cc2ccccc2)NC(=O)[C@H](CC(N)=O)NC(=O)OCc2ccccc2)[C@@H]1C(N)=O,0.05 µM,,,inhibition,,HIV-1,Protease,1.9%
CC(C)(C)c1ccc(-n2nnnc2SCC(=O)Nc2ccc(OCC(=O)NCCc3ccc(O)cc3)cc2Cl)c(Cl)c1,,,RT-K103 Y181C,IC50,PicoGreen / fluorescence,HIV-1,Reverse transcriptase,<1 µM
CC(C)[C@H](NC(=O)COc1cccnc1)C(=O)N[C@@H](Cc1ccccc1)[C@H](O)C(=O)N1CSC[C@H]1C(=O)NC(C)(C)C,0.05 µM,,,inhibition,,HIV-1,Protease,52.8%
CSc1ccccc1CNC(=O)c1nc2n(c(=O)c1O)CN(C)C2(C)C,,,,IC50,ELISA,HIV-1,Integrase,<10 µM
CC(C)(C)c1ccc(-n2nnnc2SCC(=O)Nc2ccc(OCC(=O)NCc3ccc(O)c(O)c3)cc2Cl)c(Cl)c1,,,RT-K103 Y181C,IC50,PicoGreen / fluorescence,HIV-1,Reverse transcriptase,<1 µM
Nc1nc2c(ncn2[C@H]2CC[C@@H](COP(=O)(O)OP(=O)(O)OP(=O)(O)O)O2)c(=O)[nH]1,,,RT-Y271S,IC50,nucleotide incorporation,HIV,Reverse transcriptase,>0.3 µM
CC[C@@H](C)[C@H](NC(=O)[C@@H]1CCCN1C(=O)[C@@H](O)[C@H](CC1CCCCC1)NC(=O)[C@H](CC(N)=O)NC(=O)CCc1ccccc1)C(=O)N[C@H](C(N)=O)C(C)C,5 µM,,,inhibition,,HIV-1,Protease,74.3%
CC(C)(C)c1ccc(-n2nnnc2SCC(=O)Nc2ccc(C(=O)Nc3ccc(CCC(=O)O)cc3)cc2Cl)c(Cl)c1,,,RT-K103 Y181C,IC50,PicoGreen / fluorescence,HIV-1,Reverse transcriptase,<1 µM
CC1(C)c2nc(C(=O)NCc3ccc(F)cc3)c(O)c(=O)n2CCN1CCc1ccccn1,,,,IC50,ELISA,HIV-1,Integrase,<10 µM
CC(=O)Nc1cn2c(c(O)c1=O)C(=O)N(Cc1cccc(Cl)c1F)CC2,,,,IC50,ELISA,HIV-1,Integrase,0.01–0.1 µM
O=C(CSc1nnnn1-c1ccc(C2CC2)cc1Cl)Nc1ccc(C(=O)NCc2cccc[n+]2[O-])cc1Cl,,WT,,IC50,PicoGreen / fluorescence,HIV-1,Reverse transcriptase,<1 µM